Compound potency records, mixed from different reports. Data source: NIAID ChemDB in PubChem.

Common to all: toxicity to cultured cells; cells: MT-4; read-out: CC50

Lines come from different laboratories, so protocols vary. Blank or dashed fields: not listed here. CCn: concentration that lowers growth or viability of the cells by n%.

structure | method | value
C[C@H](NP(=O)(OC[C@@H]1C=C[C@H](n2ccc3c(N)ncnc32)C1)Oc1ccccc1)C(=O)OCc1ccccc1 | MTS | 78 µM
[N-]=[N+]=N[C@H]1C[C@H](CO)S[C@H]1n1cnc2c(Cl)ncnc21 | - | >100 µM
Nc1ncnc2c1ncn2[C@H]1CC[C@@H](CO)O1 | - | 260 µg/mL
[N-]=[N+]=N[C@@H]1C[C@@H](CO)S[C@H]1n1cnc2c(Cl)ncnc21 | - | >100 µM
Cc1cc(C)c(Nc2nc(NC3CCN(Cc4ccc(F)cc4)CC3)nc3nc[nH]c23)c(C)c1 | MTT | 13.96 µM
Cc1cn([C@H]2O[C@@H](CO)C[C@@H]2F)c(=O)[nH]c1=O | - | >100 µM
CCCCOP(=O)(CN[C@@H](Cc1ccccc1)[C@H](O)CN(CC(C)C)S(=O)(=O)c1ccc(OC)cc1)OCCCC | MTT | 13.08 µg/mL
Cc1ccnc2c1NC(=O)c1cccnc1N2C1CC1 | MTT | >4 µM
CC(CC(F)(F)C(F)(F)C(F)(F)F)(C(=O)OCCOP(=O)(O)O)C(F)(F)C(F)(F)C(F)(F)F | - | >100 µg/mL
Cc1cc(C)c(S(=O)(=O)OCC2OC3OC4C(CO)OC(OC5C(CO)OC(OC6C(CO)OC(OC7C(CO)OC(OC8C(CO)OC(OC9C(C[n+]%10ccccc%10)OC(OC2C(O)C3O)C(O)C9O)C(O)C8O)C(O)C7O)C(O)C6O)C(O)C5O)C(O)C4O)c(C)c1 | - | >1000 µg/mL
C=C1CN(S(=O)(=O)c2ccc(C)cc2)CCCN(Cc2ccccc2)CCCN(S(=O)(=O)c2ccc(C)cc2)C1 | - | >30 µM
C=C(C)C(=O)OCCOP(=O)(O)O | - | >43 µg/mL
COc1ccc(CN2CCN(C[C@@H](O)[C@H](Cc3ccccc3)NC(=O)[C@@H](NC(=O)OCc3csc(C)n3)C(C)C)[C@H](C(=O)NC(C)(C)C)C2)cc1OC | - | 57 µM
Cc1ccnc2c1NC(=O)c1cccnc1N2C1CC1 | MTT | >25 µM
CCN1C[C@H](C)N2C(=C(O)C3C(=O)N4Cc5ccc(F)cc5OCCCS(=O)(=O)N(C)C(=N4)C32)C1=O | - | 11.7 µM
COc1ccc(CCN2C(=O)/C(=C\c3ccccc3-c3ccco3)N(CCc3ccc(OC)c(OC)c3)C2=S)cc1OC | MTT | 17.3 µg/mL
CC(CC(F)(OC(F)(F)C(F)(F)C(F)(F)F)C(F)(F)F)(C(=O)OCCOP(=O)(O)O)C(F)(OC(F)(F)C(F)(F)C(F)(F)F)C(F)(F)F | - | >100 µg/mL
Cc1cc(C)c(Nc2nc(NC3CCN(Cc4ccc(C#N)cc4)CC3)nc3nc[nH]c23)c(C)c1 | MTT | 26.79 µM
COc1ncnc2c1ncn2O[C@@H]1CO[C@@H](CO)O1 | - | >100 µg/mL
Cc1ccc(CN=C2C=C(Cc3ccccc3)NS(=O)(=O)N2)cc1 | MTT | 192 µM
Cc1cc(C)c(Nc2nc(NC3CCN(Cc4ccccc4C#N)CC3)nc3nc[nH]c23)c(C)c1 | MTT | 125 µM
Nc1ncnc2c1ncn2O[C@H]1CO[C@@H](CO)O1 | - | >100 µg/mL
CCN1C[C@H](C)N2C(=C(O)C3C(=O)N4Cc5ccc(F)cc5C(=O)NCCCCCCN(C)C(=N4)C32)C1=O | - | 2 µM
CC(=O)N(CC(C)C)C1CN(C)CCn2c1nc(C(=O)NCc1ccc(F)cc1)c(O)c2=O | microscopy | >1 µM
Cc1cn([C@H]2C=C(F)[C@@H](CO)O2)c(=O)[nH]c1=O | - | 232 µM
CC(C)c1nc(CN(C)C(=O)N[C@H](C(=O)N[C@@H](Cc2ccccc2)[C@H](O)CN2CCN(Cc3ccccc3)C[C@H]2C(=O)NC(C)(C)C)C(C)C)cs1 | - | 56 µM
CCCCC1(CCc2cccc(NS(=O)(=O)c3ccc(OC)cc3)c2)COC(=O)C(C(CC)c2cccc(NS(=O)(=O)c3ccc(OC)cc3)c2)=C1O | - | 29.9 µM
CC1CNC(=O)c2ccccc2SSc2ccccc2C(=O)N1 | - | 15.9 µg/mL
CCOCn1c(Cc2ccccc2)c(C(C)C)c(=O)[nH]c1=O | - | >100 µM
Cc1cc(CNC(=O)c2nc3n(c(=O)c2O)CCNCC3N(C)C(=O)C(=O)N(C)C)ccc1F | microscopy | >1 µM
C=C1[C@H](OC(C)=O)[C@H]2[C@@H](OC(C)=O)[C@](C)(OC(C)=O)C[C@]2(OC(C)=O)C(=O)[C@@H](C)/C=C/C(C)(C)C(=O)[C@@H](OC(C)CCC)[C@H]1OC(C)=O | MTT | 40 µg/mL
Cc1nc(COC(=O)N[C@H](C(=O)N[C@@H](Cc2ccccc2)[C@H](O)CN2CCN(Cc3ccc4c(c3)OCO4)C[C@H]2C(=O)NC(C)(C)C)C(C)C)cs1 | - | 56 µM
C=CCOCn1c(Cc2cc(C(F)(F)F)cc(C(F)(F)F)c2)c(CC)c(=O)[nH]c1=O | - | >100 µM
Cc1cn([C@H]2O[C@@H](CO)C[C@@H]2O)c(=O)[nH]c1=O | - | >100 µM
OC[C@@H]1OC[C@@H](On2cnc3c(Cl)ncnc32)O1 | - | >100 µg/mL
CC(=O)O[C@@H]1[C@H](C)[C@H](OC(=O)c2ccccc2)[C@@H]2[C@@H](OC(C)=O)[C@]3(C)C[C@@]4(OC(C)=O)C(=O)C(C)(C)C[C@H]4[C@]3(C)[C@@H](OC(C)=O)[C@]21O | MTT | 70 µg/mL
Cc1ccc(NC2=NS(=O)(=O)NC(Cc3ccccc3)=C2)cc1C | MTT | 177 µM
O=c1ccn([C@@H]2O[C@H](CO)[C@@H](F)[C@H]2F)c(=O)[nH]1 | - | >500 µM
Cc1cc(C)c(Nc2nc(NC3CCN(Cc4ccc([N+](=O)[O-])cc4)CC3)nc3nc[nH]c23)c(C)c1 | MTT | 21.8 µM
CC(=O)OCC(=O)O[C@@H]1[C@H]2[C@@H](OC(=O)c3ccccc3)[C@@H](C)C[C@]2(O)[C@H](OC(C)=O)[C@]2(C)C(OC(C)=O)[C@@]1(OC(C)=O)C[C@H]1C(=O)C(C)(C)C[C@@H]12 | MTT | >100 µg/mL
CN(C)CC1c2nc(C(=O)NCc3ccc(F)cc3)c(O)c(=O)n2CCN1C | microscopy | >10 µM
CCOCn1c(Cc2cc(C)cc(C)c2)c(C(C)C)c(=O)[nH]c1=O | - | 30 µM
COc1ccc(CCN2C(=O)/C(=C\c3cccc(Cl)c3)N(CCc3ccc(OC)c(OC)c3)C2=S)cc1OC | MTT | 59.95 µg/mL
Nc1nc(N)c2ncn([C@@H]3O[C@H](CO)C[C@@H]3F)c2n1 | - | >100 µM
Nc1ncnc2c1ncn2O[C@H]1CS[C@@H](CO)O1 | - | >100 µg/mL
C=C(C)COCn1c(Cc2c(F)c(F)cc(F)c2F)c(CC)c(=O)[nH]c1=O | - | 38 µM
CCn1cc(C(=O)O)c(=O)c2cc(F)c(N3CCN(c4ccccc4OC)CC3)c(OC(F)F)c21 | - | 2.3 µM
CS(=O)(=O)N1CCc2nc(C(=O)NCc3ccc(F)cc3)c(O)c(=O)n2CC1 | microscopy | >1 µM
COc1ccc(/C=C2\C(=O)N(CCc3ccc(OC)c(OC)c3)C(=S)N2CCc2ccc(OC)c(OC)c2)cc1 | MTT | 82.3 µg/mL
COC(=O)[C@H](Cc1ccccc1)NP(=O)(OC[C@H]1C=C[C@@H](n2ccc3c(N)ncnc32)C1)Oc1ccccc1 | MTS | 31.5 µM
CCOCn1c(Cc2cccc(C(F)(F)F)c2)c(CC)c(=O)[nH]c1=O | - | >100 µM
COc1ncnc2c1ncn2O[C@@H]1CS[C@@H](CO)O1 | - | >100 µg/mL
C=C(CC[C@](C)(O)[C@H]1[C@@H](O)C[C@H]2[C@@H]3[C@H](O)C=C4C[C@@H](O)CC[C@]4(C)[C@H]3CC[C@@]21C)C(C)C | MTT | 11.35 µM
C[C@H](NP(=O)(OC[C@H]1C=C[C@@H](n2ccc3c(N)ncnc32)C1)Oc1ccccc1)C(=O)OCc1ccccc1 | MTS | >10 µM
C=CCOCn1c(Cc2cccc(C(F)(F)F)c2)c(C(C)C)c(=O)[nH]c1=O | - | 39 µM
[N-]=[N+]=N[C@H]1C[C@H](CO)SC1n1cnc2c(N)ncnc21 | - | >100 µM
Cc1ccc(S(=O)(=O)Nc2nnc(C(C)NS(=O)(=O)c3ccc(Cl)cc3)s2)cc1 | MTT | 60.53 µM
CCCCC1(CCc2cccc(NS(=O)(=O)c3ccccc3)c2)COC(=O)C(C(CC)c2cccc(NS(=O)(=O)c3ccccc3)c2)=C1O | - | 58.8 µM
CCN(CC)CCOc1ccc(NC(=O)COc2ccccc2C(=O)c2ccc(F)cc2)cc1 | - | >0.862 µM
COc1ccc(CCN2C(=O)/C(=C\c3ccc(N(C)C)cc3)N(CCc3ccc(OC)c(OC)c3)C2=S)cc1OC | MTT | 17.7 µg/mL
Cc1cc(C)c(Nc2nc(NC3CCN(Cc4ccc(Cl)c(Cl)c4)CC3)nc3nc[nH]c23)c(C)c1 | MTT | 189 µM
CCOP(=O)(OCC)C(Cc1ccccc1)N[C@@H](Cc1ccccc1)[C@H](O)CN(CC(C)C)S(=O)(=O)c1ccc(OC)cc1 | MTT | 13.25 µg/mL
O=S1(=O)N=C(Nc2ccc(Cl)c(F)c2)C=C(Cc2ccc3ccccc3c2)N1 | MTT | 152 µM
CCCCCCCCCCCCCC(=O)NCC(OCC)OCC | - | >40 µM
COc1ccc(CCN2C(=O)/C(=C\c3cccc(Oc4ccccc4)c3)N(CCc3ccc(OC)c(OC)c3)C2=S)cc1OC | MTT | 24.9 µg/mL
CCCCC1(CCc2cccc(NS(=O)(=O)c3ccc(F)cc3)c2)COC(=O)C(C(CC)c2cccc(NS(=O)(=O)c3ccc(F)cc3)c2)=C1O | - | 52.4 µM
C=C1[C@H](OC(C)=O)[C@H]2[C@@H](OC(C)=O)[C@](C)(OC(C)=O)C[C@]2(OC(C)=O)C(=O)[C@@H](C)/C=C/C(C)(C)C(=O)[C@@H](OC(=O)c2ccccc2)[C@H]1OC(C)=O | MTT | 79 µg/mL
O=S1(=O)N=C(Nc2ccc(F)c(F)c2)C=C(Cc2ccc3ccccc3c2)N1 | MTT | 156 µM
CC(C)CC(NS(=O)(=O)c1ccc(Cl)cc1)c1nnc(NS(=O)(=O)c2ccc(Cl)cc2)s1 | MTT | 59.93 µM
O=C(NCc1ccc(F)cc1)C1C(=O)N(O)C(=O)c2ccccc21 | - | >125 µM
COC(=O)[C@H](C)NP(=O)(OC[C@@H]1CC[C@H](n2ccc3c(N)ncnc32)C1)Oc1ccccc1 | MTS | >25 µM
COc1ccc(S(=O)(=O)Nc2nnc(C(CC(C)C)NS(=O)(=O)c3ccc(C)cc3)s2)cc1 | MTT | 61.05 µM
COc1ncnc2c1ncn2O[C@H]1CS[C@@H](CO)O1 | - | >100 µg/mL
[N-]=[N+]=N[C@H]1C[C@@H](CO)S[C@H]1n1cnc2c(N)ncnc21 | - | >100 µM
Nc1ncnc2c1ncn2[C@H]1C=C[C@@H](CO)[C@@H]1CO | - | 40 µg/mL
COc1cc(CN2CCN(C[C@@H](O)[C@H](Cc3ccccc3)NC(=O)[C@@H](NC(=O)N(C)Cc3csc(C(C)C)n3)C(C)C)[C@H](C(=O)NC(C)(C)C)C2)ccc1O | - | 20 µM
C=C(C)COCn1c(Cc2cc(F)ccc2F)c(CC)c(=O)[nH]c1=O | - | 56 µM
CC(=O)N(CC1CCCCC1)C1CN(C)CCn2c1nc(C(=O)NCc1ccc(F)cc1)c(O)c2=O | microscopy | >1 µM
Nc1nc(N)c2ncn([C@@H]3O[C@H](CO)[C@H]3CO)c2n1 | - | 130 µg/mL

Repeating the first 5 entries:

structure | method | value
C[C@H](NP(=O)(OC[C@@H]1C=C[C@H](n2ccc3c(N)ncnc32)C1)Oc1ccccc1)C(=O)OCc1ccccc1 | MTS | 78 µM
[N-]=[N+]=N[C@H]1C[C@H](CO)S[C@H]1n1cnc2c(Cl)ncnc21 | - | >100 µM
Nc1ncnc2c1ncn2[C@H]1CC[C@@H](CO)O1 | - | 260 µg/mL
[N-]=[N+]=N[C@@H]1C[C@@H](CO)S[C@H]1n1cnc2c(Cl)ncnc21 | - | >100 µM
Cc1cc(C)c(Nc2nc(NC3CCN(Cc4ccc(F)cc4)CC3)nc3nc[nH]c23)c(C)c1 | MTT | 13.96 µM